According to PMC9867438:

Molecular target: YhjC (MBP fusion) (UniProt A0A0F6B881)
Assay: EMSA
Conditions: 1-16 uM protein, 10 mM Tris-HCl pH 7.5, 100 mM NaCl, 1 mM DTT, 10% glycerol, room temperature 20-30 min, recombinant protein, residues 1-299, label: none (GelRed stain), probe letters rebuilt from the primers and the genome

| Sequence | binding result |
| --- | --- |
| CTCAACCACGTTGCAGCGGCATCTTTATGTAATCGTATAAAACTCACAGGCTTCCCCGGCTCGTTTTTATTTTCCTTACTTAAGCAGAGATCATGCCATTCTTCGCTCCGCATAACCGCGCGTTGTCGCACACCCTTTCGGATACGGATGGGTAAAAATGACTCGCCAGGCGGGTTATGCGAGTCATTTTTACTCGCTTTTTGCCGCCTGAAGCGGGTTAACTCGCTGCCCGACAAGGAATAGTTACCTGGCACGGAAGATGCAAGAGAGAGGATAAGATGAGCAACAGGAGAACGCAAAATGAAACGGAACAATAAATCAGCTATCGCGCTAATTGCCCTCTCTCTTTTGGCCCTGAGCTCCGGCGCCGCCTTCGCCGGGCATCACTGGGGCAACAATG (double strand) [zraP promoter] | binds |
| TTTACGTGAGGAACCGTTTTATCGTTTGATGACAGAGTAAGTATGGGTTTGGGGAGCAACGGAACAGTAAACGCCGTTAAACAGCTATTTTAAATGCTCATTAATTTATTAATCAATAAATTACAAATTTTCATTGAAGGCTCCCCCCTTACTGACGAATTCCGGCACCGTAAAGGAATAACGCTCATGCATATTGATATGTCCGCACTGTAATGGTGAAAATTACATAAGCAAGAGCGTTTTTTGAAAAATATTATATTTAATGTTTTGTAATATGCATTTTATTGAGGTAGTGTAACTATGAGAGTTTCTGGTAGTGCGTCATCCCAAGATATAATATCACGTATAAATTCAAAAAATATCAATAATAATGATTCAAATGAAGTCAAGAGAATTAAAG (double strand) [spvD promoter] | binds |
